Pooled drug test results. Numbers come from NIAID ChemDB, via PubChem.

Shared fields: tests in culture; agent: HIV-1; cells: CEM + CEM-SS; read-out: EC50

Lines come from different laboratories, so protocols vary.

SMILES | strain or isolate | changes | method | value
CCOP(=O)(/C=C/n1ccc(N)nc1=O)OCC | IIIB |  |  | >200 µM
O=C(O)CCCCCCCCCCCBr | IIIB |  | cytopathic effect / XTT | 38 ± 10.7 µM
Cc1cn([C@H]2C[C@H](N=[N+]=[N-])[C@@H](CO)O2)c(=O)[nH]c1=O | NL4-3 | RT-V179D | cytopathic effect / XTT | 0.003 µM
NS(=O)(=O)c1ccc(NC(=O)c2ccccc2SSc2ccccc2C(=O)Nc2ccc(S(N)(=O)=O)cc2)cc1 | IIIB |  | cytopathic effect / XTT | 0.72 µM
CCCc1cc(=O)oc2c3c(c4c(c12)OC(C)(C)C=C4)O[C@H](C)[C@@H](C)[C@@H]3O | NL4-3 | RT-V179D | XTT | 0.05 µM
O=C(/C=C/c1ccc(O)c(O)c1)NCCOC(=O)/C=C/c1ccc(O)c(O)c1 |  |  | cytopathic effect / XTT | >7.71 µM
Cc1cn([C@H]2C[C@H](N=[N+]=[N-])[C@@H](CO)O2)c(=O)[nH]c1=O | IIIB |  | cytopathic effect / XTT | 0.0061 µM
Cc1c(O)cccc1C(=O)N[C@@H](CSc1ccccc1)[C@@H](CN1C[C@H]2CCCC[C@H]2C[C@H]1C(=O)NC(C)(C)C)OC(=O)CCCCNC(=O)O[C@H]1[C@@H](C2COC(C)(C)O2)OC2OC(C)(C)O[C@H]21.O=C(O)C(F)(F)F.O=C(O)C(F)(F)F | LAI |  | cytopathic effect / MTT | 8.2 µM
Cc1cn([C@H]2C[C@H](N=[N+]=[N-])[C@@H](CO)O2)c(=O)[nH]c1=O |  |  | cytopathic effect | 0.01 µM
CCCc1cc(=O)oc2c3c(c4c(c12)OC(C)(C)C=C4)O[C@@H](C)[C@H](C)[C@@H]3O | NL4-3 | RT-V108I | XTT | 0.2 µM
CCSCCCCCCCCCCC(=O)OC[C@H]1O[C@@H](n2cc(C)c(=O)[nH]c2=O)C[C@@H]1F |  |  | cytopathic effect | 0.006 µM
O=C(CCNC(=O)C(=O)/C=C(\O)c1cccn1Cc1ccc(F)cc1)OC[C@@H]1C=C[C@H](n2ccc(=O)[nH]c2=O)O1 | LAI |  | RT activity | >10 µM
Cc1cn([C@H]2C[C@H](N=[N+]=[N-])[C@@H](CO)O2)c(=O)[nH]c1=O | IIIB |  |  | 0.006 µM
O=C(/C=C/c1ccc(O)c(O)c1)OCCCOC(=O)/C=C/c1ccc(O)c(O)c1 |  |  | cytopathic effect / XTT | >13.5 µM
C=CCOc1cc2c(c3oc(=O)cc(CCC)c13)[C@@H](O)[C@H](C)[C@@H](C)O2 |  |  | XTT | 4.74 µM
Cc1cn([C@H]2C[C@H](N=[N+]=[N-])[C@@H](CO)O2)c(=O)[nH]c1=O | NL4-3 | RT-Y181C | XTT | 0.01 µM
Cc1cn([C@H]2C[C@H](F)[C@@H](COC(=O)CCCCCCCCCCCBr)O2)c(=O)[nH]c1=O |  |  | cytopathic effect | 0.025 µM
Nc1ccn([C@@H]2CC[C@H](CO)O2)c(=O)n1 | LAI |  |  | 0.42 µM
CC(C)(C)NC(=O)[C@@H]1CC2CCCCC2CN1C[C@@H](OC(=O)CC(=O)O[C@H]1[C@@H](C2COC(C)(C)O2)OC2OC(C)(C)O[C@H]21)[C@H](Cc1ccccc1)NC(=O)[C@H](CC(N)=O)NC(=O)c1ccc2ccccc2n1 | LAI |  | cytopathic effect / MTT | 0.019 µM
CCOP(=O)(/C=C\n1cnc2c(N)ncnc21)OCC | IIIB |  |  | >200 µM
CCOP(=O)(OCC)OC[C@@H]1C=C[C@H](n2cc(C)c(=O)[nH]c2=O)O1 |  |  |  | 3.5 µM
Cc1cn([C@H]2C=C[C@@H](CO)O2)c(=O)[nH]c1=O |  |  |  | 0.04 µM
O=c1[nH]c(=O)n(/C=C\P(=O)(O)O)cc1F | IIIB |  |  | >200 µM
Nc1ncnc2c1ncn2[C@H]1CC[C@@H](CO)O1 |  |  |  | 0.49 µM
O=c1[nH]c(=O)n(/C=C\P(=O)(O)O)cc1CO | IIIB |  |  | >200 µM
Nc1nc(=O)n([C@@H]2CC[C@H](CO)O2)cc1F | LAI |  | RT activity | 0.044 µM
CCOP(=O)(/C=C/n1cc(Br)c(=O)[nH]c1=O)OCC | IIIB |  |  | >200 µM
CC(C)(C)NC(=O)[C@@H]1CC2CCCCC2CN1C[C@@H](OC(=O)CCC(=O)O[C@H]1[C@@H](C2COC(C)(C)O2)OC2OC(C)(C)O[C@H]21)[C@H](Cc1ccccc1)NC(=O)[C@H](CC(N)=O)NC(=O)c1ccc2ccccc2n1 | LAI |  | cytopathic effect / MTT | 0.018 µM
CCCc1cc(=O)oc2c3c(c4c(c12)OC(C)(C)C=C4)O[C@H](C)[C@H](C)[C@H]3O | RF |  | cytopathic effect / XTT | >100 µM
O=C(CNC(=O)C(=O)/C=C(\O)c1cccn1Cc1ccc(F)cc1)OC[C@@H]1C=C[C@H](n2ccc(=O)[nH]c2=O)O1 | LAI |  | RT activity | >10 µM
Cc1cn([C@H]2C[C@H](N=[N+]=[N-])[C@@H](COP(=O)(OCCSC(=O)C(C)(C)C)OCCSC(=O)C(C)(C)C)O2)c(=O)[nH]c1=O | LAI |  | RT activity | 0.0004 µM
Cc1cn([C@H]2C[C@H](N=[N+]=[N-])[C@@H](CO)O2)c(=O)[nH]c1=O | MN |  | cytopathic effect / MTT | 0.002 µM
C[C@H]1[C@H](C)Oc2c3c(c4c(-c5ccccc5)cc(=O)oc4c2[C@H]1O)OC(C)(C)C=C3 | RF |  | cytopathic effect / XTT | ~0.4 µM
CCCc1cc(=O)oc2c3c(c4c(c12)OC(C)(C)C=C4)O[C@H](CC)[C@H](C)[C@H]3O | IIIB |  | cytopathic effect / MTT | >11.6 µM
Cc1cn([C@H]2C[C@H](N=[N+]=[N-])[C@@H](CO)O2)c(=O)[nH]c1=O | N119 nevirapine-resistant (RT Y181C) | RT-Y181C | RT activity | 0.004 µM
CC(C)=CCN1Cc2cccc3[nH]c(=S)n(c23)C[C@@H]1C | IIIB |  | XTT | 0.1 µM
CC(=O)Oc1ccc(/C=C/C(=O)NCCOC(=O)/C=C/c2ccc(OC(C)=O)c(OC(C)=O)c2)cc1OC(C)=O |  |  | cytopathic effect / XTT | >14.8 µM
CCOC(=O)[C@H](C)NP(=O)(OC[C@@H]1O[C@H](n2cc(C)c(=O)[nH]c2=O)C[C@H]1N=[N+]=[N-])OC[C@H]1O[C@@H](n2cc(C)c(=O)[nH]c2=O)C[C@@H]1N=[N+]=[N-] | LAI |  | RT activity | 0.027 µM
CSC[C@H](NC(=O)COc1cccc2cnccc12)C(=O)N[C@@H](Cc1ccccc1)[C@H](O)C(=O)N1CSC(C)(C)[C@H]1C(=O)NC(C)(C)C | IIIB |  | cytopathic effect | 0.006 µM
Cc1cn([C@H]2C[C@H](N=[N+]=[N-])[C@@H](CO)O2)c(=O)[nH]c1=O | LAI |  | RT activity | 0.0012 µM
Cc1cn([C@H]2C[C@H](N=[N+]=[N-])[C@@H](COP(=O)(O)OCc3ccccc3)O2)c(=O)[nH]c1=O |  |  | cytopathic effect | <0.005 µM
Cc1cn([C@H]2C=C[C@@H](COC(=O)CNC(=O)C(=O)/C=C(\O)c3cccn3Cc3ccc(F)cc3)O2)c(=O)[nH]c1=O | LAI |  | RT activity | 3 µM
CCCCCCCCCCCCSCC(COP(=O)([O-])OCC[N+](C)(C)C)OCCCCCCCCC(=O)OCC(=O)OC[C@H]1O[C@@H](n2cc(C)c(=O)[nH]c2=O)C[C@@H]1N=[N+]=[N-] | Clinical isolate H112-2 pre-AZT |  | plaque count | 0.01 µM
Cc1cn([C@@H]2C[C@@H](N=[N+]=[N-])[C@H](COP(N)(=O)OC[C@H]3O[C@@H](n4cc(C)c(=O)[nH]c4=O)C[C@@H]3N=[N+]=[N-])O2)c(=O)[nH]c1=O | LAI |  | RT activity | 0.014 µM
CC(C)(C)NC(=O)[C@@H]1CC2CCCCC2CN1C[C@@H](OC(=O)CCC(=O)O[C@H]1[C@@H](C2COC(C)(C)O2)OC2OC(C)(C)O[C@H]21)[C@H](Cc1ccccc1)NC(=O)[C@H](CC(N)=O)NC(=O)c1ccc2ccccc2n1.O=C(O)C(F)(F)F.O=C(O)C(F)(F)F | LAI |  | cytopathic effect / MTT | 0.032 µM
O=c1ccn(/C=C\P(=O)(O)O)c(=O)[nH]1 | IIIB |  |  | >200 µM
CCc1c(Sc2ccccn2)n(COCc2ccccc2)c(=O)[nH]c1=O | IIIB | RT-A98G V108I | cytopathic effect / XTT | 0.9 µM
CCCc1cc(=O)oc2c3c(c4c(c12)OC(C)(C)C=C4)OC(C)(C)[C@H](C)[C@@H]3O | IIIB |  | cytopathic effect / MTT | >21.3 µM
Cc1cn([C@H]2C=C[C@@H](COC(=O)CNC(=O)C(=O)/C=C(\O)c3cc(OCc4ccccc4)cc(OCc4ccccc4)c3)O2)c(=O)[nH]c1=O | LAI |  | RT activity | 3.5 µM
Cc1cn([C@H]2C=C[C@@H](COP(=O)(OCc3ccccc3)OCc3ccccc3)O2)c(=O)[nH]c1=O |  |  | cytopathic effect | 4.4 µM
CCSCCCCCCCCCCCC(=O)O | IIIB |  | cytopathic effect / XTT | 9.37 ± 7.1 µM
CCCc1cc(=O)oc2c3c(c4c(c12)OC(C)(C)CC4)O[C@@H](C)[C@H](C)[C@@H]3O | RF |  | syncytia | 0.14 µM
CCCc1cc(=O)oc2c(C(=O)C(C)C(C)(C)O)c(O)c3c(c12)OC(C)(C)C=C3 | IIIB |  | cytopathic effect / MTT | >27.1 µM
Cc1cn(/C=C\P(=O)(O)O)c(=O)[nH]c1=O | IIIB |  |  | >200 µM
CC[C@H](C)[C@H](NC(=O)c1ccccc1SSc1ccccc1C(=O)N[C@H](C(=O)O)[C@@H](C)CC)C(=O)O | RF |  | cytopathic effect / XTT | 6.5 µM
Cc1ccnc2c1NC(=O)c1cccnc1N2C1CC1 | UC38-resistant (RT Y181C) | RT-Y181C | XTT | 1.9 µM
CCCCCCCCCCCCSCC(COP(=O)([O-])OCC[N+](C)(C)C)OCCCCCCCCO | Clinical isolate G910-6 post-AZT | RT mutant at codon 215 | plaque count | 1.2 µM
CC(C)(C)C(=O)SCCCCOP(=O)(OCCCCSC(=O)C(C)(C)C)OC[C@@H]1CC[C@H](n2cnc3c(N)ncnc32)O1 | LAI |  | RT activity | >10 µM
CCOP(=O)(/C=C\n1cc(C)c(=O)[nH]c1=O)OCC | IIIB |  |  | >200 µM
O=C(/C=C/c1ccc(O)c(O)c1)O[C@H]1CCCC[C@@H]1OC(=O)/C=C/c1ccc(O)c(O)c1 |  |  | cytopathic effect / XTT | >5.67 µM
Cc1cn([C@H]2C[C@H](F)[C@@H](COC(=O)CCCCCCCCCCCN=[N+]=[N-])O2)c(=O)[nH]c1=O |  |  | cytopathic effect | 0.0028 µM
CCCc1cc(=O)oc2c3c(c4c(c12)OC(C)(C)C=C4)O[C@@H](C)[C@H](C)[C@@H]3O | RF |  | XTT | 0.3 µM
Cc1cn([C@H]2C=C[C@@H](COP(=O)(O)OCc3ccccc3)O2)c(=O)[nH]c1=O |  |  |  | 0.016 µM
CCCc1cc(=O)oc2c3c(c4c(c12)OC(C)(C)C=C4)O[C@H](C)[C@@H](C)[C@@H]3O | IIIB | RT-Y181C | cytopathic effect / XTT | 0.1 µM

Repeating the first 8 entries:

SMILES	strain or isolate	changes	method	value
CCOP(=O)(/C=C/n1ccc(N)nc1=O)OCC	IIIB			>200 µM
O=C(O)CCCCCCCCCCCBr	IIIB		cytopathic effect / XTT	38 ± 10.7 µM
Cc1cn([C@H]2C[C@H](N=[N+]=[N-])[C@@H](CO)O2)c(=O)[nH]c1=O	NL4-3	RT-V179D	cytopathic effect / XTT	0.003 µM
NS(=O)(=O)c1ccc(NC(=O)c2ccccc2SSc2ccccc2C(=O)Nc2ccc(S(N)(=O)=O)cc2)cc1	IIIB		cytopathic effect / XTT	0.72 µM
CCCc1cc(=O)oc2c3c(c4c(c12)OC(C)(C)C=C4)O[C@H](C)[C@@H](C)[C@@H]3O	NL4-3	RT-V179D	XTT	0.05 µM
O=C(/C=C/c1ccc(O)c(O)c1)NCCOC(=O)/C=C/c1ccc(O)c(O)c1			cytopathic effect / XTT	>7.71 µM
Cc1cn([C@H]2C[C@H](N=[N+]=[N-])[C@@H](CO)O2)c(=O)[nH]c1=O	IIIB		cytopathic effect / XTT	0.0061 µM
Cc1c(O)cccc1C(=O)N[C@@H](CSc1ccccc1)[C@@H](CN1C[C@H]2CCCC[C@H]2C[C@H]1C(=O)NC(C)(C)C)OC(=O)CCCCNC(=O)O[C@H]1[C@@H](C2COC(C)(C)O2)OC2OC(C)(C)O[C@H]21.O=C(O)C(F)(F)F.O=C(O)C(F)(F)F	LAI		cytopathic effect / MTT	8.2 µM

An empty or dashed field is not shown. ECn is the concentration giving n% inhibition of infection, replication or growth.